## Potato spindle tuber viroid, stem 26: variant abundance in plants

From the data files of Wu et al. 2024, doi:10.1371/journal.ppat.1012142.

PSTVd intermediate strain, stem 26: wild type AGGGUACCCU, pool pattern AGGGUNNCNN; upper and lower strand joined, each 5' to 3', the first 5 letters being the upper strand.

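Three N. benthamiana plants were inoculated with the whole mutant pool. Progeny were sequenced from the inoculated region (day 5), the margin of the inoculated leaf (day 10) and systemic leaves (day 12).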

Values are reads per thousand in the sample; higher means more abundant, 0 means not found.
Each value is the mean of three plants.
"Pool" is the share in the plasmid pool used as inoculum, on the same scale.
The inoculated region was read from the minus strand, the other sites from the plus strand.

AGGGUUACUU (pool 3.80) read inoculated region 1.45; leaf margin 0.0298; systemic leaves 0.00950. AGGGUGACAA (pool 2.83) read inoculated region 0.874; leaf margin 0.00742; systemic leaves 0. With AGGGUUUCUA (pool 8.34) the assay gave inoculated region 4.66; leaf margin 1.66; systemic leaves 0.977. AGGGUUGCUC (pool 2.62) gave inoculated region 2.10; leaf margin 0.634; systemic leaves 0.546. AGGGUUUCGG (pool 4.28) gave inoculated region 1.80; leaf margin 0.0248; systemic leaves 0.00623. AGGGUGGACG (pool 0.0329) gave inoculated region 0.00875; leaf margin 0.00742; systemic leaves 0. AGGGUUUUCC (pool 0.0493) read inoculated region 1.38; leaf margin 1.19; systemic leaves 0.376. AGGGUUGCCC (pool 3.13) gave inoculated region 0.831; leaf margin 0; systemic leaves 0.

For AGGGUCACCA (pool 4.72) the result was inoculated region 1.91; leaf margin 0; systemic leaves 0.0110. AGGGUGUCUC (pool 3.67) gave inoculated region 2.76; leaf margin 1.44; systemic leaves 1.92. For AGGGUGGUCG (pool 0.0658) the result was inoculated region 1.37; leaf margin 0.597; systemic leaves 0. AGGGUUGCCA (pool 5.02) read inoculated region 1.92; leaf margin 0; systemic leaves 0.0886. For AGGGUAGCUC (pool 2.53) the result was inoculated region 2.00; leaf margin 0.735; systemic leaves 0. With AGGGUCUCUC (pool 4.82) the assay gave inoculated region 3.79; leaf margin 1.27; systemic leaves 0.848. AGGGUGACAG (pool 3.06) gave inoculated region 0.827; leaf margin 0; systemic leaves 0. For AGGGUGCGCA (pool 0.0493) the result was inoculated region 0.0166; leaf margin 0; systemic leaves 0.

For AGGGUCCUCA (pool 1.35) the result was inoculated region 0.477; leaf margin 0; systemic leaves 0.00623. For AGGGUCGUCG (pool 0.0493) the result was inoculated region 0; leaf margin 0; systemic leaves 0. AGGGUCGCAG (pool 3.54) gave inoculated region 1.35; leaf margin 0; systemic leaves 0.0117. With AGGGUGACAU (pool 4.33) the assay gave inoculated region 1.77; leaf margin 0; systemic leaves 0. With AGGGUUUCAG (pool 4.01) the assay gave inoculated region 1.28; leaf margin 0; systemic leaves 0. AGGGUUACCG (pool 3.26) gave inoculated region 0.909; leaf margin 0; systemic leaves 0. For AGGGUGAGCA (pool 0.0329) the result was inoculated region 0.00875; leaf margin 0; systemic leaves 0. AGGGUAUUCU (pool 0.0164) read inoculated region 0; leaf margin 0; systemic leaves 0.

For AGGGUGGCAU (pool 3.91) the result was inoculated region 1.30; leaf margin 0.00992; systemic leaves 0.0158. AGGGUAUCAC (pool 2.62) gave inoculated region 2.28; leaf margin 0.649; systemic leaves 0.00623. With AGGGUGGCUG (pool 2.55) the assay gave inoculated region 2.07; leaf margin 0.738; systemic leaves 0. AGGUUACCCA (pool 0.0329) read inoculated region 0.0444; leaf margin 0.0373; systemic leaves 0. For AGGGUGACCA (pool 2.66) the result was inoculated region 0.932; leaf margin 0; systemic leaves 0. AGGGUGCCUU (pool 3.04) gave inoculated region 2.16; leaf margin 0.669; systemic leaves 0.601.

The last 4 entries again:

For AGGGUGGCUG (pool 2.55) the result was inoculated region 2.07; leaf margin 0.738; systemic leaves 0.
For AGGUUACCCA (pool 0.0329) the result was inoculated region 0.0444; leaf margin 0.0373; systemic leaves 0.
For AGGGUGACCA (pool 2.66) the result was inoculated region 0.932; leaf margin 0; systemic leaves 0.
For AGGGUGCCUU (pool 3.04) the result was inoculated region 2.16; leaf margin 0.669; systemic leaves 0.601.

Wild type was 44.9 per thousand in the pool and the most common sequence in every sample (inoculated region 297, 323, 447; leaf margin 793, 829, 846; systemic leaves 974, 853, 877).
Samples held 23,251 to 70,159 reads, so the smallest values rest on one or two reads.
The authors trace changes outside the varied positions to PCR and sequencing errors or to mutation in the plant; presence does not show that a variant is infectious alone.